Results of unrelated studies side by side (data: NIAID ChemDB).

All rows: tests in culture; agent: Mycobacterium tuberculosis

Rows are shuffled and stem from different studies.

structure,endpoint,method,strain or isolate,cells,tested at,result
Cc1cccc(CNCCNCCc2ccc(Cl)cc2Cl)c1,MIC,,,,,12.5 µM
CCCCN1CCCCC1.Cl,MIC,,H37Rv,,,>100 µg/mL
C[C@@H]1CN(c2c(F)c(N)c3c(=O)c(C(=O)O)cn(C4CC4)c3c2F)C[C@H](C)N1,MBC,,ATCC 35820,,,0.06 µg/mL
CC1(C)[C@H]2CC[C@@H](CNCCNCC34CC5CC(CC(C5)C3)C4)[C@@H]1C2,MIC,,,,,3.13 µM
S=C([S-])N(c1ccccc1)N(C(=S)[S-])c1ccccc1.[Na+].[Na+],MIC,BACTEC,H37Rv,,,≥12.5 µg/mL
CC[C@H]1OC(=O)[C@H](C)[C@@H](O[C@H]2C[C@@](C)(OC)[C@@H](O)[C@H](C)O2)[C@H](C)[C@@H](O[C@@H]2O[C@H](C)C[C@H](N(C)C)[C@H]2O)[C@](C)(O)C[C@@H](C)C(=O)[C@H](C)[C@@H](O)[C@]1(C)O,MBC,,ATCC 35820,,,>8 µg/mL
CN(C)CCCc1cccc2c1oc1ccccc12,MIC bound,BACTEC,H37Rv,,,>12.5 µg/mL
COc1ccccc1N,MIC,,H37Rv,,,100 µg/mL
COc1ccc([C@H]2OC(=O)C3C2C(=O)O[C@@H]3c2ccc(OC)cc2)cc1,inhibition,BACTEC,H37Rv,,12.5 µg/mL,0%
Cn1ccccc1=O,MIC,,H37Rv,,,>100 µg/mL
O=C(/C=C/c1ccccc1)c1cc(Br)ccc1O,inhibition,,H37Rv,,12.5 µg/mL,68%
O=C(c1cccs1)c1ccccc1I,MIC,,H37Rv,,,>100 µg/mL
C1CCCC(NCCNCC23CC4CC(CC(C4)C2)C3)CCC1,MIC,,,,,12.5 µM
CCOC(=O)Nc1cc(NCCCCc2ccccc2)c2[nH]cnc2n1,EC50,,H37Rv,,,<12.5 µg/mL
O=C1CC(c2ccccc2)Oc2ccc(F)cc21,inhibition,,,,12.5 µg/mL,7%
Cc1cc2c(cc1C)[n+](=O)c(C(=O)C/C(=N\NC(=O)CC#N)C(=O)Nc1ccccc1C(F)(F)F)c(C)n2[O-],MIC,BACTEC,H37Rv,,,≥12.5 µg/mL
O=C1CCCCCN1,MIC,,H37Rv,,,>100 µg/mL
O=C1C2=Cc3ccccc3OC2(O)Oc2ccc(O)cc21,MIC bound,BACTEC,H37Rv,,,>12.5 µg/mL
Cc1ccc(-c2nnc(-c3ccccc3)n2-c2cc(C(=O)O)ccc2C)cc1,MIC,,H37Rv,,,>100 µg/mL
COc1ccc(CNCCNC(c2ccccc2)c2ccccc2)c(OC)c1,MIC,,,,,50 µM
CCOC(=O)Nc1cc(N)c2[nH]c(=S)n(N)c2c1,inhibition,,H37Rv,,12.5 µg/mL,0%
Nc1ncccc1/C=C/C(=O)c1cc2ccccc2cc1O,EC50,,H37Rv,,,>12.5 µg/mL
O=c1cc(-c2ccccc2)ss1,inhibition,BACTEC,H37Rv,,12.5 µg/mL,22%
CCOC(=O)Nc1cc2c(c(N)n1)N=C(c1ccccc1)C(C)N2,EC50,,H37Rv,,,>12.5 µg/mL
CO[C@H]1/C=C/O[C@@]2(C)Oc3c(C)c(O)c4c(=O)c(c5oc6cc(N7CCN(C(C)C)CC7)cc(=O)c6nc5c4c3=C2O)NC(=O)/C(C)=C\C=C\[C@H](C)[C@H](O)[C@@H](C)[C@@H](O)[C@@H](C)[C@H](OC(C)=O)[C@@H]1C,MIC,,2227 (rifampin-resistant),,,0.1 µg/mL
O=C(O)c1cc(Br)c(O)c(Br)c1,MIC,,H37Rv,,,>100 µg/mL
CC1CN(c2cc3c(cc2F)c(=O)c(C(=O)O)cn3-c2ccc(F)cc2F)CCN1,MIC,,ATCC35838,,,0.5 µg/mL
CC(=O)c1ccccc1Cl,MIC,,H37Rv,,,>100 µg/mL
CCCCC(CC)CN1CN(CC(CC)CCCC)CC(C)(NCCN[C@@H](C)C2CCCCC2)C1,MIC,,,,,25 µM
O=C(O)c1ccc(N=Nc2ccccc2)cc1,MIC,,H37Rv,,,>100 µg/mL
O=c1c2ccccc2oc2nc3cc(Cl)ccc3n12,inhibition,,H37Rv,,6.25 µg/mL,-4%
CC[C@H]1OC(=O)[C@H](C)[C@@H](O[C@H]2C[C@@](C)(OC)[C@@H](O)[C@H](C)O2)[C@H](C)[C@@H](O[C@@H]2O[C@H](C)C[C@H](N(C)C)[C@H]2O)[C@](C)(O)C[C@@H](C)CN(C)[C@H](C)[C@@H](O)[C@]1(C)O,MIC90,,Drug-resistant,,,>8 µg/mL
CCCCCCCCCCCNCCNCCCc1ccccc1,MIC,,,,,25 µM
COc1ccc(C2Oc3cc(F)ccc3C(=O)C2O)cc1,inhibition,,H37Rv,,12.5 µg/mL,50%
O=C(O)C(=O)c1ccccc1C(=O)O,MIC,,H37Rv,,,>100 µg/mL
CCCCC(CC)CN1CN(CC(CC)CCCC)CC(C)(NCCNCc2ccco2)C1,MIC,,,,,12.5 µM
Cc1cc(-c2c(Br)cc(C(=O)O)n2C)on1,inhibition,BACTEC,H37Rv,,6.25 µg/mL,24%
Nc1cccc(/C=C/C(=O)c2ccccc2O)c1,EC50,,H37Rv,,,>12.5 µg/mL
CC(C)(C)C1=CC(=C2C(=O)C(=O)c3ccccc3C2=O)C=C(C(C)(C)C)C1=O,MIC,,H37Rv,VERO,,6.25 µg/mL
O=C1CCCN1CCCNCCNCCCCc1ccccc1,MIC,,,,,25 µM
C1CCNC1.S=C(S)N1CCCC1,MIC,,KM-R,,,0.8 µg/mL
CC(CNCCNCCC(c1ccccc1)c1ccccc1)c1ccccc1,MIC,,,,,50 µM
CC(=O)OC[C@H]1O[C@@H](Oc2cc(OC(C)=O)c3c(=O)cc(-c4ccc(OC(C)=O)cc4)oc3c2C2C(=O)c3c(OC(C)=O)cc(OC(C)=O)cc3OC2c2ccc(OC(C)=O)cc2)[C@H](OC(C)=O)[C@@H](OC(C)=O)[C@@H]1OC(C)=O,inhibition,,,,12.5 µg/mL,0%
Nc1ccn([C@@H]2O[C@H](C(O[C@@H]3O[C@H](CO)[C@@H](O)[C@H](N)[C@H]3O)[C@@H](O)[C@@H](O)[C@@H](O)[C@@H](O)CO)[C@@H](N)[C@H](O)[C@H]2O)c(=O)n1,MIC bound,BACTEC,H37Rv,,,>12.5 µg/mL
CCOC(=O)C1CCCCC1=O,MIC,,H37Rv,,,>100 µg/mL
COC(=O)CCC(=O)CC(=O)C(=O)Nc1ccc(F)cc1,MIC bound,resazurin,H37Rv,,,>6.25 µg/mL
NC1CCN(c2nc3c(cc2F)c(=O)c(C(=O)O)cn3-c2ccc(F)cc2F)C1,MBC90,,DRUG-SUS,,,>8 µg/mL
CC(C)(C)C#CC(C(=O)O)(c1ccccc1)c1ccccc1,MIC,,H37Rv,,,>100 µg/mL
COc1ccc(C2(CO)OC(CO)C(O)C2O)cc1,MIC bound,BACTEC,H37Rv,,,>12.5 µg/mL
CO[C@H]1/C=C/O[C@@]2(C)Oc3c(C)c(O)c4c(=O)c(c5oc6cc(N7CCN(CC(C)C)CC7)cc(=O)c6nc5c4c3=C2O)NC(=O)/C(C)=C\C=C\[C@H](C)[C@H](O)[C@@H](C)[C@@H](O)[C@@H](C)[C@H](OC(C)=O)[C@@H]1C,MIC,,27 (rifampin-resistant),,,0.05 µg/mL
O=C(/C=C/c1ccccc1)c1cccc2ccccc12,inhibition,,H37Rv,,12.5 µg/mL,37%
CC(=O)SCC(=O)Nc1cc(C)ccc1O,MIC,,H37Rv,,,>100 µg/mL
COc1ccc(-c2cc(=O)c3c(OC)cc(OC)c([C@H]4C(=O)c5c(OC)cc(OC)cc5O[C@@H]4c4ccc(OC)cc4)c3o2)cc1,EC50,,,,,<12.5 µg/mL
CCOC(=O)Nc1cc2c(nc(SCc3ccccc3)n2/N=C/c2ccccc2)c(N)n1,EC50,,H37Rv,,,>12.5 µg/mL
C(=C\C=C\c1ccccc1)/C=C/c1ccccc1,MIC,,H37Rv,,,>100 µg/mL
FC(F)(F)c1ccc(CNCCNCCc2ccc(Cl)cc2Cl)cc1,MIC,,,,,50 µM
NCC[C@H](O)C(=O)N[C@@H]1C[C@H](N)[C@@H](O[C@H]2O[C@H](CN)[C@@H](O)[C@H](O)[C@H]2O)[C@H](O)[C@H]1O[C@H]1O[C@H](CO)[C@@H](O)[C@H](N)[C@H]1O,MIC,broth dilution / resazurin,MDR7,,,128 µg/mL
O=C1c2c(O)cccc2[C@H]([C@@H]2O[C@H](CO)[C@@H](O)[C@H](O)[C@H]2O)c2cc(CO)cc(O)c21,inhibition,BACTEC,H37Rv,,12.5 µg/mL,-8%
COc1ccc(CNCCNCCc2ccc(Cl)cc2Cl)cc1OC,MIC,,,,,50 µM
CC1(C)CCC[C@]2(C)[C@H]3C=C4C=C(O)C(=O)C=C4O[C@@]3(C)CC[C@@H]12,MIC,,EMB-R,,,12.5 µg/mL
COc1cc(OC)cc(C(N)=O)c1,MIC,,H37Rv,,,>100 µg/mL
O=S(=O)(O)c1cccc(/C(=N/Nc2ccccn2)c2ccccn2)c1,inhibition,BACTEC,H37Rv,,12.5 µg/mL,-6%
NC(=O)NCN1CCOCC1,MIC,,H37Rv,,,>100 µg/mL
C=C1C(=O)[C@@]23CC[C@H]4C(C)(CCC[C@@]4(C)C(=O)OC)[C@@H]2CC[C@]1(O)C3,MIC,,INH-r,,,6.3 µg/mL
CN(C(=O)c1ccc2c(O)cccc2c1)c1ccccc1,MIC,,H37Rv,,,>100 µg/mL
COC(=O)C1C(OC(C)=O)C(C)C(O)C(C)(O)/C=C(\C)C2=C3C(=C(C)C(=O)c4c(O)c(c(C)c(OC(C)=O)c43)NC(=O)/C(C)=C/C=C\[C@](C)(O)C(O)[C@@H](C)C1O)OCO2,MIC,,H37Rv,VERO,,1.6 µg/mL
Nc1ccc(S(=O)(=O)c2ccc(N)nc2)cc1,MIC,,H37Rv,,,>100 µg/mL
CCCCCC(C)NCCNc1cccc2ncccc12,MIC,,,,,6.25 µM
CCCCCCCCCC(=O)CCCCCCCCC,MIC,,H37Rv,,,>100 µg/mL
OC(/C=C\c1ccccc1)(Cc1cc(-c2ccccc2)n[nH]1)c1ccccc1,MIC bound,resazurin,H37Rv,,,>6.25 µg/mL
CC(CNCCC(c1ccccc1)c1ccccc1)NCC12CC3CC(CC(C3)C1)C2,MIC,,,,,6.25 µM
CCOC(=O)Nc1cc(NC(c2ccccc2)c2ccccc2)c(N)c(N)n1,EC50,,H37Rv,,,>12.5 µg/mL
O=C(O)CNc1ccc(O)cc1,MIC,,H37Rv,,,>100 µg/mL
CC1(C)C(=O)N(c2ccccc2)C(=O)N1c1nc2ccccc2[nH]1,inhibition,BACTEC,H37Rv,,12.5 µg/mL,-1%
NCC[C@H](O)C(=O)N[C@@H]1C[C@H](N)[C@@H](O[C@H]2O[C@H](CN)[C@@H](O)[C@H](O)[C@H]2O)[C@H](O)[C@H]1O[C@H]1O[C@H](CO)[C@@H](O)[C@H](N)[C@H]1O,MIC,,ATCC 35827 (kanamycin-resistant),,,>128 µg/mL

ECn: concentration that inhibits the pathogen or its effect by n%. MIC50, MIC90 and the like: level of inhibition, or share of isolates inhibited. Inhibition is in % at the dose shown (toxicity tests: loss of growth or viability). An empty or dashed field is not shown. MIC bound: limit read from a one-dose screen.